Assay results published in publication PMC10143992, “Interkingdom Signaling of the Insect Pathogen Photorhabdus luminescens with Plants Via the LuxR solo SdiA” (Microorganisms, 2023).
For at least one entry, the source does not settle the construct or the ends of the probe. Tags and fusion partners may be left off the protein sequences shown.

Tested on: T1, SdiA (LuxR solo, 6His-SdiA) (Photorhabdus luminescens DJC)
T1 sequence (looked up): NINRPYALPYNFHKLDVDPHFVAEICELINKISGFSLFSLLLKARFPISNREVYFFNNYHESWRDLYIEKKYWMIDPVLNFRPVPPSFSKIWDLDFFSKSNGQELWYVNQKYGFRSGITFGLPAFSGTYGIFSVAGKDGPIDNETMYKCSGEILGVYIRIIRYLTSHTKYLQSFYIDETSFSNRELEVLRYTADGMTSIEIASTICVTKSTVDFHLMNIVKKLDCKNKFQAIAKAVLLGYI
Assay: SPR
Details: 3.3% (v/v) plant root exudate (PRE), SPR Biacore T200, SA chip, HBS-EP+ (10 mM HEPES pH 7.4, 150 mM NaCl, 3 mM EDTA, 0.005% Tween-20), SdiA 1.5625-200 nM, 30 uL/min, 1:1 fit, temperature not stated, recombinant protein, residues 1-241, label: 5' biotin on fwd strand, probe letters rebuilt from the primers and the genome

Sequence | Kd (ka 8.2e4 /M/s, kd 1.1e-3 /s) | Kd (ka 1.8e5 /M/s, kd 2.0e-2 /s)
GACACCTCTTTACATATTTAAACTATTTATTGGGAATCGAAAGGTTATTTTGCTTACTCATTATTATTCTAATAACTTTCTTTTTATATAATTAACTATTAAAGTTGAAACAGCTACTGGGATAAATCATAGTTTATATGGGAAAATTACTCATATATTTATTAGGTATTGCTTCATATAG (double strand) [PaidA promoter fragment] | 13.3 nM | 
GATTATTAGGATTTCAATCCTATTGATATAATTTCCCCTGTTTACCAATAATACATTGTGATTTATCAGACATTGTTTCTGTATAACAGTAAATAATTATTTTCTTTATTAAATGTAAATTTTGCTACTATAATAAATATTAGGATTCACTATCAATATTCTTAATTTTCAAGAGGACATTGA (double strand) [PsdiA promoter fragment] |  | 109 nM
